Pooled drug test results. Numbers come from NIAID ChemDB, via PubChem.

All rows: tests in culture; agent: Hepatitis C virus

a–b is a range or a potency band. Blank or dashed fields: not listed here. Neighbouring rows are from separate reports. ECn: concentration that inhibits the pathogen or its effect by n%.

| structure | setting | changes | cell line | strain or isolate | measure | read by | value |
|---|---|---|---|---|---|---|---|
| CNC(=O)c1c(-c2ccc(F)cc2)oc2cc(-c3cc(C)[nH]n3)c(OC(C)C)cc12 |  |  | Huh7 |  | EC50 | replicon | <10 µM |
| C[C@@]1(O)[C@H](O)[C@@H](CO)O[C@H]1N1C=CC(N)NC1=O |  |  | Huh7 | 1a | EC50 | replicon | 2.5 µM |
| CC(C)(C)OC(=O)N1[C@H](CO)CC(F)(F)[C@H]1n1cnc2c(N)ncnc21 |  |  |  |  | EC50 | replicon | >10 µM |
| C=C(C)COc1ccc(C2Nc3cccc(O)c3NC3=C2S(=O)(=O)CC(C)(C)C3)c(F)c1F |  |  |  | 1b | EC50 |  | 14.9 µM |
| COC(=O)/C=C1\S/C(=N/N=C/c2cccc(OC)c2)NC1=O |  |  | Huh 5-2 | 1b Con1 (replicon) | EC50 | luciferase / luminescence | 8.28 µM |
| COc1ccc(Cn2c(Br)nc3c(=O)nc(NCc4ccccc4)[nH]c(=O)c32)cc1 |  |  | Huh7 |  | EC50 | replicon | <10 µM |
| CC(C)(C)OC(=O)N1[C@H](CO)CC(F)(F)[C@@H]1n1cnc2ncnc(Cl)c21 |  |  |  |  | EC50 | replicon | >10 µM |
| CONc1ncnc2c1ncn2[C@@H]1O[C@H](CO)[C@@H](O)[C@@]1(C)O |  |  | Huh7 |  | EC50 | replicon | 40 µM |
| C=C[C@@H]1C[C@]1(NC(=O)[C@@H]1C[C@@H]2CN1C(=O)[C@H](C(C)(C)C)NC(=O)C[C@@H]1C[C@H]1CCCCCc1nc3ccc(OC)cc3nc1O2)C(=O)NS(=O)(=O)C1CC1 |  |  |  | 1b | EC50 | replicon | 0.0035 µM |
| [N-]=[N+]=N[C@]1(CO)O[C@@H](n2ccc(N)nc2=O)[C@@H](F)[C@@H]1O |  |  | Huh-7 (cell line 2209-23) | 1b | EC50 | replicon | 0.024 µM |
| CNC(=O)c1c(-c2ccc(F)cc2F)oc2ccc(OC(C)C)cc12 |  |  | Huh7 |  | EC50 | replicon | <30 µM |
| O=c1nc(NO)ccn1[C@H]1O[C@@H](CO)[C@H](O)[C@@H]1F |  |  | Huh7 |  | EC90 | replicon | 5 µM |
| CNC(=O)c1c(-c2ccc(F)cc2)oc2cc(N(C)S(C)(=O)=O)c(OCC(C)=O)cc12 |  |  | Huh7 |  | EC50 | replicon | <1 µM |
| Cc1ccc(CC#Cc2nc(C(N)=O)nn2COCCO)cc1 |  |  | Huh 5-2 |  | EC50 | luciferase / reporter gene | 16 µg/mL |
| CCCCCCCC(=O)CCCCCC/C=C/[C@H](C(=O)N[C@@H](Cc1ccc(CCCC(C)C)cc1)C(=O)O)[C@@](O)(CC(=O)O)C(=O)O |  |  |  |  | EC50 |  | 0.012 µM |
| CNS(=O)(=O)NC(=O)c1ccc2c(C3CCCCC3)c3n(c2n1)CC(C(=O)N1C[C@@H](C)O[C@@H](C)C1)=Cc1cc(OC)ccc1-3 |  |  |  | 1b | EC50 | replicon | 0.001–0.5 µM |
| CC(C)(C)OC(=O)N1[C@H](CO)CC(F)(F)[C@H]1n1cnc2ncnc(Cl)c21 |  |  |  |  | EC50 | replicon | >10 µM |
| NC(=O)c1nc(C#CCc2ccc(F)cc2)n(COCCO)n1 |  |  | Huh 5-2 |  | EC50 | luciferase / reporter gene | 22 µg/mL |
| COC(=O)/C=C1\S/C(=N/N=C/c2ccc(Cl)cc2)NC1=O |  |  | Huh 5-2 | 1b Con1 (replicon) | EC50 | luciferase / luminescence | 18 µM |
| CCCCCCCCNc1nc(=O)c2nc(Br)n(COCc3ccccc3)c2c(=O)[nH]1 |  |  | Huh7 |  | EC50 | replicon | >10 µM |
| O=c1oc2ccccc2cc1CSc1nc2ccc(F)cc2[nH]1 |  |  | Huh 5-2 |  | EC50 | luciferase / replicon | 11 µM |
| CC(C)[C@H](NC(=O)NC1CCCC1)C(=O)N1CC[C@H]2[C@H]1C(C1CCC1)C(=O)N2C(=O)C1CC1 |  |  | Huh7 |  | EC50 | ELISA | 3.7 µM |
| COc1ccc2c(O[C@@H]3C[C@H]4C(=O)N[C@]5(C(=O)NS(=O)(=O)C6CC6)C[C@H]5/C=C\CCCCCCC(=O)N4C3)cc(-c3nccs3)nc2c1C |  |  |  |  | EC50 |  | 0.018 µM |
| CCc1nc([N+](=O)[O-])c(Sc2ccccc2)n1Cc1ccccc1 |  |  |  |  | EC50 | replicon | 3 µg/mL |
| C=C[C@@H]1C[C@]1(NC(=O)[C@@H]1C[C@@H]2CN1C(=O)[C@H](C(C)(C)C)NC(=O)OCCC/C=C/c1ccc3ccnc(c3c1)O2)C(=O)NS(=O)(=O)C1CC1 |  |  |  |  | EC50 | luciferase | 0.00158 µM |
| NC(=O)c1nc(C#CCCCCCl)n(COCCO)n1 |  |  | Huh 5-2 |  | EC50 | luciferase / reporter gene | >50 µg/mL |
| CCN(CC)Cc1ccc(C(=O)N(CCc2ccccc2OC)C2CCNC2)cc1 |  |  | Huh7.5 | JFH-1 | EC50 |  | 3.3 µM |
| COc1cnc(O[C@@H]2C[C@H]3C(=O)N[C@]4(C(=O)NS(=O)(=O)C5CC5)C[C@H]4/C=C\CCCCC[C@@H](NC(=O)Nc4ccc5c(c4)B(O)OC5)C(=O)N3C2)c2cc(Cl)ccc12 |  |  |  | 1a | EC50 | replicon | 0.06 µM |
| CNC(=O)c1c(-c2ccc(F)cc2)oc2cc(N(C)S(C)(=O)=O)c(OCc3cc(OC)cc(OC)c3)cc12 |  |  | Huh7 |  | EC50 | replicon | <1 µM |
| Cc1cccc(C(=O)N2c3cccc(O)c3NC3=C(C2c2ccc(Oc4ccccc4Br)cc2F)S(=O)(=O)CC(C)(C)C3)n1 |  |  |  | 1b | EC50 |  | 0.4993 µM |
| CC(C)(C)OC(=O)N1[C@H](CO)CC(F)(F)[C@H]1n1cnc2ncnc(N)c21 |  |  |  |  | EC50 | replicon | >10 µM |
| C#Cc1cn([C@@H]2O[C@H](CO)[C@@H](O)[C@@]2(C)O)c2ncnc(N)c12 |  |  | ET |  | EC50 | replicon | 0.09 µM |
| CNC(=O)c1c(-c2ccc(F)cc2)oc2cc(C(C)O)c(OC(C)C)cc12 |  |  | Huh7 |  | EC50 | replicon | <1 µM |
| CCNc1nc(=O)c2nc(Br)n(Cc3ccc(OC)cc3)c2c(=O)[nH]1 |  |  | Huh7 |  | EC50 | replicon | >10 µM |
| CC1(C)O[C@H]2O[C@H](CO)[C@H](O)[C@H]2O1 |  |  |  |  | EC50 | replicon | 10–100 µM |
| CCC[C@H](NC(=O)[C@@H]1[C@H]2CCC[C@H]2CN1C(=O)[C@@H](NC(=O)[C@@H](NC(=O)c1cnccn1)C1CCCCC1)C(C)(C)C)C(=O)C(=O)NC1CC1 | 20% human serum |  | Huh7 |  | EC50 | replicon | 1.4 µM |
| CCCCCc1ccc(CC#Cc2nc(C(N)=O)nn2COCCO)cc1 |  |  | Huh 5-2 |  | EC50 | luciferase / reporter gene | 22 µg/mL |
| C[C@@H]1[C@H](n2ccc(N)nc2=O)O[C@@](COC(C)(C)C)(N=[N+]=[N-])[C@H]1OC(C)(C)C |  |  | Huh7-Rep | genotype 1 | EC50 | luciferase | 3.6 µM |
| COC(=O)/C=C1\S/C(=N/N=C/c2cccc(Br)c2)NC1=O |  |  | Huh 5-2 | 1b Con1 (replicon) | EC50 | luciferase / luminescence | 2.95 µM |
| CCC[C@H](NC(=O)[C@@H]1CC2CCCCC2N1C(=O)[C@@H](NC(=O)[C@@H](NC(=O)c1cnccn1)C1CCCCC1)C(C)(C)C)C(=O)C(=O)NC1CC1 |  |  |  |  | EC50 |  | 1.09 µM |
| Nc1nc2c(nnn2[C@@H]2O[C@H](/C=C/P(=O)(O)O)C[C@H]2O)c(=O)[nH]1 |  |  |  |  | EC50 | replicon | 10–100 µM |
| CC(C)(C)OC(=O)N1[C@H](CO)CC(F)(F)[C@H]1n1ccc(=O)[nH]c1=O |  |  |  |  | EC50 | replicon | >10 µM |
| CCC[C@H](NC(=O)[C@@H]1[C@H]2CCC[C@H]2CN1C(=O)[C@@H](NC(=O)[C@@H](NC(=O)c1cnccn1)C1CCCCC1)C(C)(C)C)C(=O)C(=O)NC1CC1 |  |  | Huh7 | Mutant strain | EC50 | replicon | 8.1–12 µM |
| Nc1ncnc2c1ncn2[C@@H]1O[C@H](/C=C/P(=O)(O)O)C[C@H]1O |  |  |  |  | EC50 | replicon | <10 µM |
| COc1cc(C2OCC3C(=O)OCC32)cc(O)c1OC |  |  | Ava5 |  | EC50 | PCR | 10.5 µM |
| CNC(=O)c1c(-c2ccc(F)cc2)oc2cc(-c3ncn[nH]3)c(OC(C)C)cc12 |  |  | Huh7 |  | EC50 | replicon | <30 µM |
| NC(=O)c1nc(C#CCc2ccccc2)n(COCCO)n1 |  |  | Huh 5-2 |  | EC50 | luciferase / reporter gene | 18 µg/mL |
| COc1c(C(C)(C)C)cc(-n2ccc(=O)[nH]c2=O)c2ncc(-c3ccc(NS(C)(=O)=O)cc3)cc12 | 40% human serum |  | Huh7 | GT-1b Con1 | EC90 | replicon | 0.047 µM |
| O=C(c1nn2c(C(F)(F)F)cc(C3CC3)cc2c1Cl)N1CCN([C@H]2C[C@H]3C[C@H]3[C@H]2O)C(=O)C1 |  | H94N | Huh7 | 1b | EC50 | luciferase | >1 µg/mL |
| COC(=O)/C=C1\S/C(=N/N=C/c2ccc(N(C)C)cc2)NC1=O |  |  | Huh 5-2 | 1b Con1 (replicon) | EC50 | luciferase / luminescence | 14.4 µM |
| CC(C)(C)OC(=O)N1[C@H](CO)CC(F)(F)[C@@H]1n1cnc2ncnc(N)c21 |  |  |  |  | EC50 | replicon | >10 µM |
| CN(N)c1ncnc2c1ncn2[C@@H]1O[C@H](COP(=O)(OCCSC(=O)C(C)(C)C)OCCC(=O)C(C)(C)C)[C@@H](O)[C@@]1(C)O |  |  | Huh7 |  | EC50 | replicon | 0.045 µM |
| COC(=O)/C=C1\S/C(=N/N=C/c2ccc(OCc3ccccc3)cc2)NC1=O |  |  | Huh 5-2 | 1b Con1 (replicon) | EC50 | luciferase / luminescence | 12.8 µM |
| CON(C)c1ncnc2c1ncn2[C@@H]1O[C@H](CO)[C@@H](O)[C@@]1(C)O |  |  | Huh7 |  | EC50 | replicon | 3.7 µM |
| C#C[C@@]1(O)[C@H](O)[C@@H](CO)O[C@H]1n1ccc2c(N)ncnc21 |  |  |  |  | EC50 | luciferase / replicon | 0.1 µM |
| C[C@@]1(O)[C@H](O)[C@@H](CO)O[C@H]1n1cnc2c(NNS(C)(=O)=O)ncnc21 |  |  | Huh7 |  | EC50 | replicon | 3 µM |
| CNC(=O)c1c(-c2ccc(F)cc2)oc2c(C)cc(OC(C)C)cc12 |  |  | Huh7 |  | EC50 | replicon | <30 µM |
| COc1ccc2c(c1)C=C(C(=O)N1C[C@@H](C)O[C@@H](C)C1)Cn1c-2c(C2CCCCC2)c2cccnc21 |  |  |  | 1b | EC50 | replicon | 0.5–10 µM |
| NC(=O)c1nc(C#CCC2=CCCCC2)n(COCCO)n1 |  |  | Huh 5-2 |  | EC50 | luciferase / reporter gene | >50 µg/mL |
| CN(NS(C)(=O)=O)c1ncnc2c1ncn2[C@@H]1O[C@H](COP(=O)(OCCSC(=O)C(C)(C)C)OCCC(=O)C(C)(C)C)[C@@H](O)[C@@]1(C)O |  |  | Huh7 |  | EC50 | replicon | 0.06 µM |
| CNc1nc(N)nc2c1ncn2[C@@H]1O[C@H](/C=C/P(=O)(O)O)C[C@H]1O |  |  |  |  | EC50 | replicon | >100 µM |